Measurements published in ChEMBL document CHEMBL1156736, “Multidentate small-molecule inhibitors of vaccinia H1-related (VHR) phosphatase decrease proliferation of cervix cancer cells” (J Med Chem, 2009).

Chains of the proteins cited; added tags and fusions are not shown. Lines headed by an entry give the natural chain unless they say otherwise; changes in a name come on top.
UniProt P51452: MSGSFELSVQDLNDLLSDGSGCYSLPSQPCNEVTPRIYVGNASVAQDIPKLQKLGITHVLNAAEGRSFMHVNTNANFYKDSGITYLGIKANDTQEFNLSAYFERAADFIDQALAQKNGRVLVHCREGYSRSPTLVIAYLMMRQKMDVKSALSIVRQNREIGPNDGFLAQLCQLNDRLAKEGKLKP

Target: Dual specificity protein phosphatase 3 (Homo sapiens, UniProt P51452)
Assay: Inhibition of recombinant vaccina H1-related phosphatase

O=C1/C(=C/c2cn(-c3ccccc3)nc2-c2ccc(S(=O)(=O)N3CCCCC3)cc2)SC(=S)N1CCS(=O)(=O)O
IC50: 270 nM
